Laboratory results from patent US6329498A, “Polypeptide transition metal salts and method of enhancing anti-HIV activity of polypeptide” (Seikagaku Corporation, priority 1996, dated 2001).

Test system: human immunodeficiency virus (HIV)
Assay: Anti-HIV activity: protection of HIV-infected MT-4 cells from cell death, MTT method
Settings: rough ratio of CC50 to EC50, MT-4 cells
Method: To a 96-well microtiter plate, HIV-infected MT-4 cells (2.5×10^4 cells/well, Multiplicity of infection (MOI): 0.001) was added immediately after the infection along with test materials in various concentrations. […] On the other hand, in order to know the cytotoxicity of the test substances on the MT-4 cells, virus-non-infected cells were cultured with the test materials in various concentrations as described above. […] And the rough ratio of CC50 to EC50 (CC50 /EC50) is expressed as an effective ratio (SI).

Substance: Dextran sulfate [reference compound]
- SI (CC50 /ED50): > 1480
